Measurements from PMC7281614, “Induction of Antibacterial Metabolites by Co-Cultivation of Two Red-Sea-Sponge-Associated Actinomycetes Micromonospora sp. UR56 and Actinokinespora sp. EG49” (Marine Drugs, 2020).
Structures were worked out from names or drawings and are uncertain.

Chains of the proteins cited; added tags and fusions are not shown.
UniProt P0A0K8, whole entry: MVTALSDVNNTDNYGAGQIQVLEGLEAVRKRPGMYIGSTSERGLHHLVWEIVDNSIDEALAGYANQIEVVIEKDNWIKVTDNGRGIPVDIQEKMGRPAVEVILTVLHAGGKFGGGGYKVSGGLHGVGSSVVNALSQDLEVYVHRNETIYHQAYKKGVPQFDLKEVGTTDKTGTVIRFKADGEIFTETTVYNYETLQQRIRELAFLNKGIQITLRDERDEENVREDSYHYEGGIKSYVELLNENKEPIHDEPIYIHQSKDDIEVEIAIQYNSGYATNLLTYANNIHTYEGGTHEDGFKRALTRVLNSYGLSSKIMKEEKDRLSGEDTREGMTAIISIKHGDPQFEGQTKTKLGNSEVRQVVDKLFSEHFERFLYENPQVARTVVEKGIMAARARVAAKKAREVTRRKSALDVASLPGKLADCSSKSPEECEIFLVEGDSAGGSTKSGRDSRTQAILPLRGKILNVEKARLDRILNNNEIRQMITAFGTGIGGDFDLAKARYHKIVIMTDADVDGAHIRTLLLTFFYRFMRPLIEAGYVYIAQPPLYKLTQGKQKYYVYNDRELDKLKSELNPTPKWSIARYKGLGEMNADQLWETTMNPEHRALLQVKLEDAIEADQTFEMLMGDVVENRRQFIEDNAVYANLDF
UniProt Q6GG09, whole entry: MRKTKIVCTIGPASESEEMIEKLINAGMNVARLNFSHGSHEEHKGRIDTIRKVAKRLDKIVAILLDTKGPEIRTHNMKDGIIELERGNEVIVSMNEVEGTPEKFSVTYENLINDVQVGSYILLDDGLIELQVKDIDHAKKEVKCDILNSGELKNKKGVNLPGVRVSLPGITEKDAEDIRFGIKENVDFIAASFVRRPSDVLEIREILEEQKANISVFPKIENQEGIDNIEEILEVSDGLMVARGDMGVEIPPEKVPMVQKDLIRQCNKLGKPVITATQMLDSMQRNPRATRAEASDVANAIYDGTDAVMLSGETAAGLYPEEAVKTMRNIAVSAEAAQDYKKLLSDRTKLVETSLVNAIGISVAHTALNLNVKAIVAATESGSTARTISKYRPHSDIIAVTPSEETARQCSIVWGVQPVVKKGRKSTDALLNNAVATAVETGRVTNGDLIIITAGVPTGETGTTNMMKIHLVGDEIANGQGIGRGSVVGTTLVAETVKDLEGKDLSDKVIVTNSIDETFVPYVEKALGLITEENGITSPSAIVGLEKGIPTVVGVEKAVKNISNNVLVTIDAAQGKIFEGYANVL
UniProt P20831, whole entry partner: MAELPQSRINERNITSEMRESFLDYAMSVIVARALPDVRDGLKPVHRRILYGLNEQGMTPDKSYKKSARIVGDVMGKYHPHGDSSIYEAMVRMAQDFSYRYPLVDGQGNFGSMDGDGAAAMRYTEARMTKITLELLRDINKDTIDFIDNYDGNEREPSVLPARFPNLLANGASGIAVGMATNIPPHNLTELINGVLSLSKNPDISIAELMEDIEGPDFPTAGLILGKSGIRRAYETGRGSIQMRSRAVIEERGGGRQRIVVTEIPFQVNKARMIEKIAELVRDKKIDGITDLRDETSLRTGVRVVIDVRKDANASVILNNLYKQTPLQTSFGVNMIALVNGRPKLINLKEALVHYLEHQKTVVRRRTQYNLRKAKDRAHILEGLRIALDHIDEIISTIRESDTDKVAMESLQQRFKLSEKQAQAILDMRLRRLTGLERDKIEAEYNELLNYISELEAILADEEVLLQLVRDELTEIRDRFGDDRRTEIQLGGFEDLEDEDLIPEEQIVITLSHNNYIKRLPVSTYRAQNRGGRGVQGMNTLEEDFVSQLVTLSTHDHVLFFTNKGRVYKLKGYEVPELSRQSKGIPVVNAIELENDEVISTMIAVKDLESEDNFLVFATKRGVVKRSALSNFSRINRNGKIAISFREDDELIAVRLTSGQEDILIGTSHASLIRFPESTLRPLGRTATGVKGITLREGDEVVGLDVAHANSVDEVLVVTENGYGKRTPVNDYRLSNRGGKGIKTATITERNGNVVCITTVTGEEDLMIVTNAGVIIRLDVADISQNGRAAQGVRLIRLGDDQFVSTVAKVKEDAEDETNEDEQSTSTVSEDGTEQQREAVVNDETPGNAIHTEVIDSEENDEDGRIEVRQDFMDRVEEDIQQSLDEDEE

Key:
[1] = molecular target: Staphylococcus DNA gyrase-B (Staphylococcus aureus, UniProt P0A0K8); assay: In vitro enzyme assay, DNA gyrase-B ATPase (Inspiralis kit); type: biochemical; conditions: read-out: IC50 (µM) Gyr-B; IC50 ± SD
Description: DNA gyrase (type II topoisomerase) and topoisomerase IV (ParE) add negative supercoils into DNA using ATP hydrolysis as a source of energy. They are considered crucial bacterial enzymes that are absent in eukaryotes. DNA-gyrase-B- and ParE-inhibitory activities were evaluated using the Inspiralis assay kit (Inspiralis®, London, UK) on streptavidin-coated 96 well microtiter plates (Thermo Scientific, Hamburg, Germany), according to the manufacturer’s protocol. The assay detects the ability of the isolated compounds to prevent the ATPase activity of both gyrase-B and ParE subunits. On the other hand, pyruvate kinase (PK) has been discovered to be an important hub protein in the interactome of MRSA [52]. The PK-inhibitory activity of the isolated compounds was assessed according to a previously reported method.

[2] = molecular target: Staphylococcus pyruvate kinase (PK) (Staphylococcus aureus, UniProt Q6GG09); assay: In vitro enzyme assay, pyruvate kinase inhibition; conditions: read-out: IC50 (µM) PK; IC50 ± SD

`COC(=O)NCc1cc(-c2sc(-c3ccccc3)nc2N2CCC(O)CC2)[nH]n1` was tested, and the IC50 [1] was 0.091 µM and the IC50 [2] was 0.24 µM.
